Results from PMC3663898 (Antiviral research, 2013).

Conditions: rats, single oral dose 25, 50, 100 or 200mg/kg, 7-day observation

CC(C)(C)C(=O)N(CCCCCCN1C[C@H](O)[C@@H](O)[C@H](O)[C@H]1CO)C1CCCCC1 [IHVR17028, N-cyclohexyl-N-(6-((2R,3R,4R,5S)-3,4,5-trihydroxy-2-(hydroxymethyl)piperidin-1-yl)hexyl)pivalamide]
survival in single oral dose MTD study: survived
